Pooled drug test results. Numbers come from NIAID ChemDB, via PubChem.

Common to all: whole-cell or culture tests; agent: Human cytomegalovirus; cells: MRC-5; endpoint: EC50

Blank or dashed fields: not listed here. ECn is the concentration giving n% inhibition of infection, replication or growth. Rows are shuffled and stem from different studies.

SMILES | strain or isolate | read by | result
Nc1ncnc2c1ncn2CC/C=C/P(=O)(O)O | AD169 | plaque count | >300 µM
NC1=Nc2c(ncn2CCC(/C=C/P(=O)(O)O)CO)C(=O)C1 | - | cytopathic effect | 39 µM
C[C@H]1[C@@H](OC(=O)CCC(=O)O)O[C@@H]2O[C@@]3(C)CC[C@H]4[C@H](C)CC[C@@H]1[C@@]24OO3 | P | plaque count | 1.26 µM
Nc1nc2c(ncn2COCCO)c(=O)[nH]1 | AD169 | plaque count | 44 µM
N=C(N)c1cn([C@H]2C[C@H](O)[C@@H](CO)O2)c2ncnc(N)c12 | AD169 | plaque count | 5 µM
Nc1ncnc2[pH]cnc12 | - | plaque count | 8.08 µg/mL
Nc1nc(N)c2ncn(CC/C=C/P(=O)(O)O)c2n1 | AD169 | plaque count | >300 µM
CC#Cc1cn([C@@H]2O[C@H](CO)[C@@H](O)[C@@H]2O)c(=O)[nH]c1=O | AD169 | plaque count | >100 µM
NC1=Nc2c(ncn2CCCCCP(=O)(O)O)C(=O)C1 | - | cytopathic effect | >250 µM
Cc1cc(=O)c2c(O)c3c(O)cc(O)c4c5c(O)cc(O)c6c(O)c7c(=O)cc(C)c8c1c2c(c34)c(c65)c78 | AD169 | plaque count | 1.8 µM
O=C(O)P(=O)(O)O | - | - | 39.7 µM
Nc1ncnc2c1ncn2OC(/C=C/P(=O)(O)O)CO | AD169 | plaque count | >300 µM
O=c1[nH]c(=S)n([C@@H]2O[C@H](CO)[C@@H](O)[C@@H]2O)cc1Br | AD169 | plaque count | >295 µM
CCCCCCCCCCCCCCCCCCOC[C@H](COP(=O)(O)C(=O)O)OCc1ccccc1 | AD169 | - | 0.64 µM
O=c1ccn([C@H]2C[C@H](O)[C@@H](CO)O2)c(=S)[nH]1 | AD169 | plaque count | >412 µM
O=C(NCCc1c[nH]c2ccccc12)C1=Cc2ccncc2CC1 | C8704 | plaque count | 0.09 µM
O=c1[nH]c(=S)n([C@H]2C[C@H](O)[C@@H](CO)O2)cc1F | AD169 | plaque count | >383 µM
CCCCCCCCCCCCCCCCOC[C@@H](O)COP(=O)(O)C(=O)O | - | - | 0.63 µM
Nc1ncnc2c1ncn2OCC/C=C/P(=O)(O)O | AD169 | plaque count | >300 µM
CCCNc1nc2c(Cl)cc(Cl)cc2n1[C@@H]1O[C@H](CO)[C@@H](O)[C@H]1O | - | - | 0.15 µM
N=C(N)c1cn([C@@H]2O[C@H](CO)[C@@H](O)[C@@H]2O)c2ncnc(N)c12 | AD169 | plaque count | 35 µM
Cc1cc(C)c(Nc2cc(S(=O)(=O)O)c(N)c3c2C(=O)c2ccccc2C3=O)c(C)c1 | - | luciferase | 6.3 µM
CC#Cc1cn([C@@H]2O[C@H](COP(=O)(O)OCC(F)(F)F)[C@@H](O)[C@@H]2O)c(=O)[nH]c1=O | AD169 | plaque count | >100 µM
C=C(/C=C/P(=O)(O)O)CCn1cnc2c(=O)[nH]c(N)nc21 | AD169 | cytopathic effect | >250 µM
CCCCCCCCCCCCCCCCCCOC[C@@H](O)COP(=O)(O)C(=O)O | - | - | 0.7 µM
Cc1cn([C@H]2C[C@H](O)[C@@H](CO)O2)c(=O)[nH]c1=O | AD169 | plaque count | >385 µM
NC(=O)c1c(Cl)c(-c2cccnc2)n2c1C(O)CCC2 | AD169 | plaque count | 0.02 µM
CC#Cc1cn([C@@H]2O[C@H](COP(=O)(O)OCC)[C@@H](O)[C@@H]2O)c(=O)[nH]c1=O | AD169 | plaque count | >100 µM
O[C@@H]1[C@H](O)[C@@H](CF)O[C@H]1n1c(Cl)nc2cc(Cl)c(Cl)cc21 | - | - | 0.5 µM
Cc1cc(O)c2c(c1)Cc1cc(O)cc(O)c1C2=O | AD169 | plaque count | 2.3 µM
CC(C)Nc1nc2cc(Cl)c(Cl)cc2n1[C@H]1O[C@@H](CO)[C@H](O)[C@@H]1O | AD169 | hybridisation | 0.12 µM
O=C1c2ccc(O)cc2C(=O)c2ccc(O)cc21 | AD169 | plaque count | >13.3 µM
Nc1ccn(C[C@@H](CO)OCP(=O)(O)O)c(=O)n1 | AD169 | plaque count | 0.5 µM
N/C(=N/O)c1cn([C@H]2C[C@H](O)[C@@H](CO)O2)c2ncnc(N)c12 | AD169 | plaque count | 9 µM
OC[C@@H]1O[C@H](n2c(NC3CC3)nc3cc(Cl)c(Cl)cc32)C[C@H]1O | AD169 | hybridisation | 0.17 µM
CC#Cc1cn([C@@H]2O[C@H](COP(=O)(O)Oc3cccc(Cl)c3)[C@@H](O)[C@@H]2O)c(=O)[nH]c1=O | AD169 | plaque count | >10 µM
O=c1[nH]c(=S)n([C@@H]2O[C@H](CO)[C@@H](O)[C@@H]2O)cc1Cl | AD169 | plaque count | >340 µM
O=C1c2ccccc2C(=O)c2ccccc21 | AD169 | plaque count | >15.4 µM
NC(=O)c1cn([C@H]2C[C@H](O)[C@@H](CO)O2)c2ncnc(N)c12 | AD169 | plaque count | 0.6 µM
CCCCCCCCCCCCCCCCSC[C@H](O)COP(=O)(O)C(=O)O | - | - | 1.1 µM

For reference, 2 entries again:

SMILES	strain or isolate	read by	result
CCCCCCCCCCCCCCCCOC[C@@H](O)COP(=O)(O)C(=O)O	-	-	0.63 µM
CCCCCCCCCCCCCCCCSC[C@H](O)COP(=O)(O)C(=O)O	-	-	1.1 µM